Pooled drug test results. Numbers come from NIAID ChemDB, via PubChem.

Shared fields: tests in culture; organism: HIV-1

Blank or dashed fields: not listed here.

structure | measure | method | cell line | strain or isolate | changes | result
Cc1ccc2sn(/N=C/c3ccccc3[N+](=O)[O-])c(=O)c2c1 | EC50 | MTT | MT-4 | - | EFV-resistant (K103 V179D P225H) | >100 µM
CCOC(C(=O)O)c1c(C)nc2ccc(Br)cc2c1-c1ccc(Cl)cc1 | EC50 | luciferase / reporter gene | C8166 | - | - | <20 µM
CCc1c(Cc2cc(C)cc(C)c2)n(COCC#Cc2cc3ccccc3c3ccccc23)c(=O)[nH]c1=O | EC50 | MTT | MT-4 | IIIB | WT | 0.3 µM
CCCCCCCCCCCCCCCCCCOCCOP(=O)(O)CO[C@H](CO)Cn1ccc(N)nc1=O | EC50 | p24 / ELISA | PBMC | NRTI-MDR | K65R | 0.027 µM
CCCC(C(=O)O)c1c(C)nc2ccc(Cl)cc2c1-c1ccc(Cl)s1 | EC50 | luciferase / reporter gene | C8166 | - | - | <20 µM
CCc1c(Cc2cc(C)cc(C)c2)n(COCC#Cc2ccc(C=O)cc2)c(=O)[nH]c1=O | EC50 | MTT | MT-4 | IIIB | EFV-resistant (K103R V179D P225H) | 14 µM
COc1cccc2c1nc(-c1ccccc1F)n2Cc1ccc(F)cc1 | EC50 | - | MT-4 | IIIB | - | 0.47 µg/mL
Cc1noc(CN2CCn3c(nc(C(=O)NCc4ccc(F)cc4)c(O)c3=O)C2(C)C)n1 | EC50 | p24 | MT-4 | - | - | <1 µM
O=c1c2ccccc2sn1/N=C/c1ccc(O)cc1O | EC50 | MTT | MT-4 | - | EFV-resistant (K103 V179D P225H) | >21 µM
CC(C)CN(C[C@@H](O)[C@H](Cc1ccccc1)NC(=O)O[C@H]1CO[C@H]2OCC[C@H]21)S(=O)(=O)c1ccc2c(c1)OCO2 | EC50 | p24 | PHA-PBM | MDR/MM | - | 0.0038 µM
CCc1c(Cc2cc(C)cc(C)c2)n(COCC#Cc2ccc(NC(=O)CBr)cc2)c(=O)[nH]c1=O | EC50 | MTT | MT-4 | IIIB | K103N + Y181C | 2.3 µM
CC1(C)c2nc(C(=O)NCc3ccc(F)cc3)c(O)c(=O)n2CCN1Cc1cnccn1 | EC50 | p24 | MT-4 | - | - | <1 µM
O=c1c2ccccc2sn1/N=C/c1ccccc1O | EC50 | MTT | MT-4 | - | EFV-resistant (K103 V179D P225H) | >18 µM
CC(=O)[C@@H](C)OC(C(=O)O)c1c(C)nc2ccc(Br)cc2c1-c1ccc(Cl)cc1 | EC50 | luciferase / reporter gene | C8166 | - | - | <20 µM
CC(C)CN(C[C@@H](O)[C@H](Cc1ccccc1)NC(=O)O[C@H]1CCOC1)S(=O)(=O)c1cccnc1 | EC50 | p24 | CEM | IIIB | - | <0.101 µM
CCCCCCCCCCCCCCCCCCOCCOP(=O)(O)CO[C@H](CO)Cn1cnc2c(=O)[nH]c(N)nc21 | EC50 | p24 / ELISA | MT-2 | LAI | - | 0.009 µM
C=C(C)[C@@H]1CC[C@]2(C(=O)NCCCCCCCC(=O)N[C@@H](CC(C)C)[C@@H](O)CC(=O)O)CC[C@]3(C)[C@H](CC[C@@H]4[C@@]5(C)CC[C@H](O)C(C)(C)[C@@H]5CC[C@]43C)[C@@H]12 | EC50 | p24 | CEM + CEM-4 | LAI | - | 0.1 µM
CCN1CCn2c(nc(C(=O)NCc3ccc(F)cc3)c(O)c2=O)C(N(C)C(=O)C(=O)N(C)C)C1 | EC50 | p24 | MT-4 | - | - | <1 µM
CCc1c(Cc2cc(C)cc(C)c2)n(COCC#Cc2ccccc2[N+](=O)[O-])c(=O)[nH]c1=O | EC50 | MTT | MT-4 | IIIB | Y181C | >10 µM
CC(=O)N1CCn2c(nc(C(=O)NCc3ccc(F)cc3)c(O)c2=O)C1 | EC95 | p24 | MT-4 | - | - | <50 µM
CCCCCCCCCCCCCCCCCCOCCOP(=O)(O)CO[C@H](CO)Cn1cnc2c(N)ncnc21 | EC50 | p24 / ELISA | PBMC | NRTI-MDR | V75I F77L F116Y Q151M | 0.014 µM
COc1cc(/C=N/n2sc3ccccc3c2=O)ccc1O | EC50 | MTT | MT-4 | - | - | >15 µM
COc1cccc2c1nc(-c1ccccc1F)n2Cc1ccc(C#N)cc1 | EC50 | - | MT-4 | IIIB | - | 12.23 µg/mL
O=C(O)c1cc(-n2cccc2)ccc1Cl | EC90 | luciferase / cell fusion | PBMC/5.25M7 | BCF02 R5 GROUP O | - | 88.74 µM
Cc1ccc2sn(/N=C/c3ccc(O)cc3)c(=O)c2c1 | EC50 | MTT | MT-4 | - | - | >23 µM
CN(C)CCN1CCn2c(nc(C(=O)NCc3ccc(F)cc3)c(O)c2=O)C1(C)C | EC50 | p24 | MT-4 | - | - | <1 µM
C=C(COC)COC(=O)N[C@@H](Cc1ccccc1)[C@H](O)CN(CC(C)C)S(=O)(=O)c1ccc(NC(C)=O)cc1 | EC50 | p24 | CEM | IIIB | - | <0.101 µM
CC1(C)CC=C(c2cn(-c3nccc(C(=O)NC4CCC(N5CC6CCC(C5)O6)CC4)n3)c3ccc(F)c([C@H](OC(C)(C)C)C(=O)O)c23)CC1 | EC50 | luminescence | MT-4 | NL4-3 | T124N/T125A | 0.0058 µM
Cc1nc2ccc(Br)cc2c(-c2ccc(Cl)cc2)c1C(OCC#N)C(=O)O | EC50 | luciferase / reporter gene | C8166 | - | - | <20 µM
COC(=O)N[C@@H](Cc1ccccc1)[C@H](O)CN(CC(C)C)S(=O)(=O)c1ccc(Cl)c(Cl)c1 | EC50 | p24 | CEM | IIIB | - | <1.001 µM
C[C@@H]1CCO[C@H]2Cn3cc(C(=O)NCc4ccc(F)cc4F)c(=O)c(O)c3C(=O)N12 | EC90 | luminescence | H9 | IIIB | - | 0.0024 µM
COc1ccc(/C=N/n2sc3ccccc3c2=O)cc1 | EC50 | MTT | MT-4 | - | K103N + Y181C | >19 µM
C#C[C@]1(CO)O[C@@H](n2cnc3c(N)nc(F)nc32)C[C@@H]1O | EC90 | p24 / ELISA | PBMC | NL4-3 | - | >0.066 µM
CC(=O)Nc1cccc(S(=O)(=O)N(CC(C)C)C[C@@H](O)[C@H](Cc2ccccc2)NC(=O)[C@H](CC(N)=O)NC(=O)c2ccc3ccccc3n2)c1 | EC50 | p24 | CEM | IIIB | - | <0.101 µM
CCc1c(Cc2cc(C)cc(C)c2)n(COCC#Cc2ccc(CO[Si](c3ccccc3)(c3ccccc3)C(C)(C)C)cc2)c(=O)[nH]c1=O | EC50 | MTT | MT-4 | IIIB | K103N + Y181C | >100 µM
CC(C)CN(C[C@@H](O)[C@H](Cc1ccccc1)NC(=O)OCc1cccnc1)S(=O)(=O)c1ccc(F)cc1 | EC50 | p24 | CEM | IIIB | - | <0.101 µM
O=c1c2ccccc2sn1/N=C/c1ccc([N+](=O)[O-])cc1[N+](=O)[O-] | EC50 | MTT | MT-4 | - | K103N + Y181C | >100 µM
CC(=O)Nc1cc(S(=O)(=O)N(CC(C)C)C[C@@H](O)[C@H](Cc2ccccc2)NC(=O)OC2CCOC2)ccc1F | EC50 | p24 | CEM | IIIB | - | <0.101 µM
C=C(C)Cn1c(-c2ccccc2F)nc2c(OC)cccc21 | EC50 | - | MT-4 | IIIB | - | 0.019 µg/mL
CCc1ccc(-c2c(C(OC3(CC)CC3)C(=O)O)c(C)nc3ccc(Cl)cc23)cc1 | EC50 | luciferase / reporter gene | C8166 | - | - | <20 µM
Cc1ccc2sn(/N=C/c3cccc(F)c3)c(=O)c2c1 | EC50 | MTT | MT-4 | - | K103N + Y181C | >30 µM
CN1CCn2c(nc(C(=O)NCc3ccc(F)cc3)c(O)c2=O)C(N(C)C(=O)C(=O)N(C)C)C1 | EC50 | p24 | MT-4 | - | - | <1 µM
CCCC(C(=O)O)c1c(-c2ccc(Cl)cc2)c2cc(Cl)ccc2n(CC2CC2)c1=O | EC50 | luciferase / reporter gene | C8166 | - | - | <20 µM
CCc1c(Cc2cc(C)cc(C)c2)n(COC/C(Br)=C(\Br)c2ccccc2)c(=O)[nH]c1=O | EC50 | MTT | MT-4 | IIIB | EFV-resistant (K103R V179D P225H) | 12 µM
C=CCn1c(-c2ccccc2F)nc2c(OC)cccc21 | EC50 | - | MT-4 | IIIB | - | 0.43 µg/mL
Cc1ccsc1-c1c(C(OC(C)C)C(=O)O)c(C)nc2ccc(Cl)cc12 | EC50 | luciferase / reporter gene | C8166 | - | - | <20 µM
CC(C)CN(C[C@@H](O)[C@H](Cc1ccccc1)NC(=O)OC(C)(C)C)S(=O)(=O)c1cccc(F)c1 | EC50 | p24 | CEM | IIIB | - | <1.001 µM
COc1cccc2c1nc(-c1ccccc1F)n2Cc1ccncc1 | EC50 | - | MT-4 | IIIB | - | 10.9 µg/mL

A second listing of 6 rows from above:

structure	measure	method	cell line	strain or isolate	changes	result
CCc1c(Cc2cc(C)cc(C)c2)n(COCC#Cc2cc3ccccc3c3ccccc23)c(=O)[nH]c1=O	EC50	MTT	MT-4	IIIB	WT	0.3 µM
O=C(O)c1cc(-n2cccc2)ccc1Cl	EC90	luciferase / cell fusion	PBMC/5.25M7	BCF02 R5 GROUP O	-	88.74 µM
O=c1c2ccccc2sn1/N=C/c1ccccc1O	EC50	MTT	MT-4	-	EFV-resistant (K103 V179D P225H)	>18 µM
CC(C)CN(C[C@@H](O)[C@H](Cc1ccccc1)NC(=O)O[C@H]1CCOC1)S(=O)(=O)c1cccnc1	EC50	p24	CEM	IIIB	-	<0.101 µM
CC(C)CN(C[C@@H](O)[C@H](Cc1ccccc1)NC(=O)O[C@H]1CO[C@H]2OCC[C@H]21)S(=O)(=O)c1ccc2c(c1)OCO2	EC50	p24	PHA-PBM	MDR/MM	-	0.0038 µM
CC(=O)Nc1cc(S(=O)(=O)N(CC(C)C)C[C@@H](O)[C@H](Cc2ccccc2)NC(=O)OC2CCOC2)ccc1F	EC50	p24	CEM	IIIB	-	<0.101 µM

ECn is the concentration giving n% inhibition of infection, replication or growth. Rows are shuffled and stem from different studies.